{"source": "PubChem BioAssay AID1259414 (Drosophila RNAi Screening Center, 2018)", "test": "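Genome-wide screen for host control of endosymbiont load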 (primary screen)", "cell system": "Drosophila JW18 cells infected with Wolbachia", "knock-down reagent": "long dsRNA against Drosophila genes, 0.25 µg dsRNA per well of a 384-well plate", "time to read-out": "5 days", "treatment": "cells persistently infected with Wolbachia before knock-down; no added drug", "read-out": "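Imaged fluorescence in situ signal for Wolbachia 23S rRNA per DAPI-counted host cell, given as a robust z-score within each plate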", "direction": "Wolbachia per cell robust z: higher = more Wolbachia per host cell than the plate typical", "active means": "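Active if absolute robust z reaches 1.5 in two or more of three replicates, leaving out multi- or no-target dsRNAs, genes unexpressed in JW18 and A1 wells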", "note": "The deposit covers about 24,000 reagents; shown is a random part of those that have a named target and a result. Of all reagents, about 1,210 (5%) got an active call. 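Inactive calls also include excluded dsRNAs with several or no targets, genes unexpressed in JW18, and well A1, regardless of score.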 Names joined by + are all predicted targets of the reagent. No sequences are given here."}
{"gene":"bark","DRSC id":"DRSC00635","Wolbachia per cell robust z, rep 1":-0.645,"Wolbachia per cell robust z, rep 2":-5.86,"Wolbachia per cell robust z, rep 3":2.11,"Outcome":"inactive"}
{"gene":"bark","DRSC id":"DRSC27011","Wolbachia per cell robust z, rep 1":-0.777,"Wolbachia per cell robust z, rep 2":-0.0741,"Wolbachia per cell robust z, rep 3":-2.45,"Outcome":"inactive"}
{"gene":"RhoGAP68F","DRSC id":"DRSC10717","Wolbachia per cell robust z, rep 1":0.43,"Wolbachia per cell robust z, rep 2":-0.139,"Wolbachia per cell robust z, rep 3":-4.49,"Outcome":"inactive"}
{"gene":"sina + Rh4","DRSC id":"DRSC11396","Wolbachia per cell robust z, rep 1":-2.74,"Wolbachia per cell robust z, rep 2":-0.494,"Wolbachia per cell robust z, rep 3":-0.729,"Outcome":"inactive"}
{"gene":"CG7914","DRSC id":"DRSC20068","Wolbachia per cell robust z, rep 1":0.471,"Wolbachia per cell robust z, rep 2":-1.2,"Wolbachia per cell robust z, rep 3":0.367,"Outcome":"inactive"}
{"gene":"CG7914","DRSC id":"DRSC28931","Wolbachia per cell robust z, rep 1":0.666,"Wolbachia per cell robust z, rep 2":0.268,"Wolbachia per cell robust z, rep 3":0.844,"Outcome":"inactive"}
{"gene":"Cec-Psi1","DRSC id":"DRSC21956","Wolbachia per cell robust z, rep 1":-0.401,"Wolbachia per cell robust z, rep 2":-2.23,"Wolbachia per cell robust z, rep 3":-0.406,"Outcome":"inactive"}
{"gene":"CG4390","DRSC id":"DRSC15572","Wolbachia per cell robust z, rep 1":1.87,"Wolbachia per cell robust z, rep 2":1.22,"Wolbachia per cell robust z, rep 3":-0.574,"Outcome":"inactive"}
{"gene":"CG4390","DRSC id":"DRSC26410","Wolbachia per cell robust z, rep 1":-0.807,"Wolbachia per cell robust z, rep 2":-0.718,"Wolbachia per cell robust z, rep 3":0.282,"Outcome":"inactive"}
{"gene":"CG5500","DRSC id":"DRSC15820","Wolbachia per cell robust z, rep 1":0.795,"Wolbachia per cell robust z, rep 2":0.554,"Wolbachia per cell robust z, rep 3":0.535,"Outcome":"inactive"}
{"gene":"CG5500","DRSC id":"DRSC29450","Wolbachia per cell robust z, rep 1":-0.0532,"Wolbachia per cell robust z, rep 2":0.641,"Wolbachia per cell robust z, rep 3":0.643,"Outcome":"inactive"}
{"gene":"CG2680","DRSC id":"DRSC18466","Wolbachia per cell robust z, rep 1":0.458,"Wolbachia per cell robust z, rep 2":0.0605,"Wolbachia per cell robust z, rep 3":-3.52,"Outcome":"inactive"}
{"gene":"CG2680","DRSC id":"DRSC41351","Wolbachia per cell robust z, rep 1":-3.16,"Wolbachia per cell robust z, rep 2":-0.198,"Wolbachia per cell robust z, rep 3":0.284,"Outcome":"inactive"}

The list goes on; the last 3 above are carried over.
{"gene":"CG5500","DRSC id":"DRSC29450","Wolbachia per cell robust z, rep 1":-0.0532,"Wolbachia per cell robust z, rep 2":0.641,"Wolbachia per cell robust z, rep 3":0.643,"Outcome":"inactive"}
{"gene":"CG2680","DRSC id":"DRSC18466","Wolbachia per cell robust z, rep 1":0.458,"Wolbachia per cell robust z, rep 2":0.0605,"Wolbachia per cell robust z, rep 3":-3.52,"Outcome":"inactive"}
{"gene":"CG2680","DRSC id":"DRSC41351","Wolbachia per cell robust z, rep 1":-3.16,"Wolbachia per cell robust z, rep 2":-0.198,"Wolbachia per cell robust z, rep 3":0.284,"Outcome":"inactive"}
{"gene":"Ndc80","DRSC id":"DRSC20221","Wolbachia per cell robust z, rep 1":0.607,"Wolbachia per cell robust z, rep 2":-3.08,"Wolbachia per cell robust z, rep 3":-0.0463,"Outcome":"inactive"}
{"gene":"Ndc80","DRSC id":"DRSC21726","Wolbachia per cell robust z, rep 1":-2.48,"Wolbachia per cell robust z, rep 2":-0.0605,"Wolbachia per cell robust z, rep 3":-0.452,"Outcome":"inactive"}
{"gene":"CCHa1","DRSC id":"DRSC24978","Wolbachia per cell robust z, rep 1":1.25,"Wolbachia per cell robust z, rep 2":1.27,"Wolbachia per cell robust z, rep 3":-0.0841,"Outcome":"inactive"}
{"gene":"tHMG2","DRSC id":"DRSC16182","Wolbachia per cell robust z, rep 1":-0.195,"Wolbachia per cell robust z, rep 2":-1.61,"Wolbachia per cell robust z, rep 3":-1.31,"Outcome":"inactive"}
{"gene":"CG13564","DRSC id":"DRSC04201","Wolbachia per cell robust z, rep 1":0.261,"Wolbachia per cell robust z, rep 2":-0.611,"Wolbachia per cell robust z, rep 3":0.156,"Outcome":"inactive"}
{"gene":"CG10560","DRSC id":"DRSC14256","Wolbachia per cell robust z, rep 1":-0.0468,"Wolbachia per cell robust z, rep 2":0.655,"Wolbachia per cell robust z, rep 3":-1.77,"Outcome":"inactive"}
{"gene":"Rh3","DRSC id":"DRSC16822","Wolbachia per cell robust z, rep 1":-0.245,"Wolbachia per cell robust z, rep 2":3.37,"Wolbachia per cell robust z, rep 3":0.272,"Outcome":"inactive"}
{"gene":"CG13068","DRSC id":"DRSC09951","Wolbachia per cell robust z, rep 1":-0.184,"Wolbachia per cell robust z, rep 2":0.495,"Wolbachia per cell robust z, rep 3":-1.13,"Outcome":"inactive"}
{"gene":"CG13068","DRSC id":"DRSC27150","Wolbachia per cell robust z, rep 1":1.09,"Wolbachia per cell robust z, rep 2":-0.0992,"Wolbachia per cell robust z, rep 3":1,"Outcome":"inactive"}
{"gene":"Noc3","DRSC id":"DRSC12535","Wolbachia per cell robust z, rep 1":-0.232,"Wolbachia per cell robust z, rep 2":0.71,"Wolbachia per cell robust z, rep 3":0.281,"Outcome":"inactive"}
{"gene":"CG43759","DRSC id":"DRSC19464","Wolbachia per cell robust z, rep 1":-0.148,"Wolbachia per cell robust z, rep 2":-9.46,"Wolbachia per cell robust z, rep 3":-0.319,"Outcome":"inactive"}
{"gene":"CG43759","DRSC id":"DRSC19543","Wolbachia per cell robust z, rep 1":2.12,"Wolbachia per cell robust z, rep 2":0.573,"Wolbachia per cell robust z, rep 3":0.83,"Outcome":"inactive"}
{"gene":"CG43759","DRSC id":"DRSC26393","Wolbachia per cell robust z, rep 1":-0.231,"Wolbachia per cell robust z, rep 2":-0.275,"Wolbachia per cell robust z, rep 3":-0.308,"Outcome":"inactive"}
{"gene":"CG12662","DRSC id":"DRSC17865","Wolbachia per cell robust z, rep 1":-4.57,"Wolbachia per cell robust z, rep 2":-0.174,"Wolbachia per cell robust z, rep 3":-0.0901,"Outcome":"inactive"}
{"gene":"RhoGAP100F","DRSC id":"DRSC15409","Wolbachia per cell robust z, rep 1":0.637,"Wolbachia per cell robust z, rep 2":-0.792,"Wolbachia per cell robust z, rep 3":0.44,"Outcome":"inactive"}
{"gene":"RhoGAP100F","DRSC id":"DRSC28096","Wolbachia per cell robust z, rep 1":0.601,"Wolbachia per cell robust z, rep 2":-0.31,"Wolbachia per cell robust z, rep 3":1.84,"Outcome":"inactive"}
{"gene":"ssx","DRSC id":"DRSC18492","Wolbachia per cell robust z, rep 1":3.74,"Wolbachia per cell robust z, rep 2":0.129,"Wolbachia per cell robust z, rep 3":1.8,"Outcome":"active"}
{"gene":"ssx","DRSC id":"DRSC23454","Wolbachia per cell robust z, rep 1":-0.522,"Wolbachia per cell robust z, rep 2":-0.198,"Wolbachia per cell robust z, rep 3":-0.586,"Outcome":"inactive"}
{"gene":"ssx","DRSC id":"DRSC38980","Wolbachia per cell robust z, rep 1":-1.03,"Wolbachia per cell robust z, rep 2":-0.528,"Wolbachia per cell robust z, rep 3":-0.683,"Outcome":"inactive"}
